Columns and labels:
[1] = Transfer of antimicrobial coating to release liner, LC-MS quantification; settings: after sterilization, 200 gsm silicone adhesive
[2] = Transfer of antimicrobial coating to release liner, light microscopy; settings: sprayed from 0.56% by weight solution; after sterilization
[3] = Rolling ball tack test (ASTM D 3121-06) on coated wound contact layers; settings: for Tackiness (displacement in mm): sterile

| SMILES | amount of antimicrobial transferred to the release liner [1] | amount of spray coated antimicrobial present on the silicone surface [1] | transfer of coating from silicone surface to release liner (light microscopy) [2] | impact on the tackiness ([3]; 15, 45 and 75 μg/cm^2 vs non-coated control) | Tackiness (displacement in mm) ([3]; theoretical concentration 15 ug/cm2) | Tackiness (displacement in mm) ([3]; theoretical concentration 45 ug/cm2) | Tackiness (displacement in mm) ([3]; theoretical concentration 75 ug/cm2) |
| --- | --- | --- | --- | --- | --- | --- | --- |
| N=C(NCCCCCCNC(=N)NC(=N)Nc1ccc(Cl)cc1)NC(=N)Nc1ccc(Cl)cc1.O=C(O)[C@H](O)[C@@H](O)[C@H](O)[C@H](O)CO.O=C(O)[C@H](O)[C@@H](O)[C@H](O)[C@H](O)CO [CHG, chlorhexidine gluconate] | more than 64% | Less than 36% | majority of the CHG coating transferred | – | – | – | – |
| N=C(NCCCCCCNC(=N)NC(=N)Nc1ccc(Cl)cc1)NC(=N)Nc1ccc(Cl)cc1 [CHP, chlorhexidine phosphate] | – | more than 66% | only minor transfer | no significant impact | 13 +/− 4% | 15 +/− 0% | 16 +/− 5% |

Source: US20240181121A1, “A WOUND CARE PRODUCT COMPRISING AN ANTIMICROBIAL COATING” (Mölnlycke Health Care AB, priority 2021, published 2024)
